Measured values from several laboratories, pooled; numbers as filed in NIAID ChemDB.

Common to all: whole-cell or culture tests; species: Toxoplasma gondii

ECn: concentration that inhibits the pathogen or its effect by n%. Inhibition is in % at the dose shown (toxicity tests: loss of growth or viability). a–b is a range or a potency band. Blank or dashed fields: not listed here. Conditions beyond the fields shown may differ between rows. MIC50, MIC90 and the like: level of inhibition, or share of isolates inhibited.

smiles,strain,cells,endpoint,tested at,value
O=C(NC(=S)Nc1ccc(Br)cc1)c1ccccc1COc1ccc(Cl)cc1,RH beta-gal,Human foreskin fibroblasts (HFF),EC50,-,14 µM
Cc1ccnc(NS(=O)(=O)c2ccc(N)cc2)n1,RH,-,EC90,-,229 µg/mL
CC(C)(C)c1ccc(CSc2ncnc3c2ncn3[C@@H]2O[C@H](CO)[C@@H](O)[C@H]2O)cc1,RH adenosine kinase-deficient,-,inhibition,10 µM,0%
CN(C)c1ccc(C(=O)NC(=O)c2ccccc2O)cc1,-,Human foreskin fibroblasts,MIC90,-,0.125–0.62 µM
OC[C@H]1O[C@@H](n2cnc3c(SCc4ccc(Cl)cc4Cl)ncnc32)[C@H](O)[C@@H]1O,RH (WILD TYPE),-,inhibition,25 µM,65.5%
CCc1ccc(C(=O)NS(=O)(=O)c2ccccc2OC)cc1,-,Human foreskin fibroblasts,MIC50,-,>0.25 µM
N#CC(c1ccc(Cl)cc1)c1c(Cl)cc(-n2ncc(=O)[nH]c2=O)cc1Cl,RH,-,inhibition,0.1 µg/mL,100%
COc1ccc(OCc2ccccc2C(=O)NC(=S)Nc2cccc(C)c2)cc1,RH beta-gal,Human foreskin fibroblasts (HFF),EC50,-,109 µM
Cc1occc1C(=O)NC(=O)c1ccccc1O,-,Human foreskin fibroblasts,MIC50,-,>1 µM
O=C(NC(=S)Nc1ccc(Br)cc1)c1ccccc1COc1ccc(F)cc1,RH beta-gal,Human foreskin fibroblasts (HFF),EC50,-,42 µM
CCc1ccc(C(=O)NC(=O)c2ccccc2)cc1,-,Human foreskin fibroblasts,MIC90,-,>0.25 µM
COc1ccc(OCc2ccccc2C(=O)NC(=S)Nc2cccc3ccccc23)cc1,RH beta-gal,Human foreskin fibroblasts (HFF),EC50,-,100 µM
CN1CCC(c2cc(-c3ccncc3)c(-c3ccc(F)cc3)[nH]2)CC1,TG-PKG FLAG T761Q-KO,-,EC50,-,7.932 µM
CCN(CC)c1ccc(C(=O)NC(=O)c2ccccc2)cc1,-,Human foreskin fibroblasts,MIC90,-,>0.25 µM
COc1ccc(OCc2ccccc2C(=O)NC(=S)Nc2ccc(Br)cc2)cc1,RH beta-gal,Human foreskin fibroblasts (HFF),EC50,-,39 µM